Test results: US20070292426A1

Assays:
[1] = target: purified Stx1 (Shiga toxin type 1 holotoxin) (Escherichia coli) (UniProt P08026); assay: cell-based or functional assay; conditions: scale: dilution factor
[2] = target: purified Stx1 (Shiga toxin type 1 holotoxin) (Escherichia coli) (UniProt P08026); conditions: scale: fold dilution of the 13C4 MAb

Substance: murine 13C4 monoclonal antibody
- inhibition of Stx1 binding to Gb3-coated plates [1]: > 8000
- IC50 (read off the curve) [2]: 1000
